# Measurements reported in PubChem BioAssay AID504761 (Drosophila RNAi Screening Center, 2011).
# Test: 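Fly genes whose silencing reduces dengue virus type 2 infection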 (primary screen)
# System: D.Mel-2 cells from Drosophila
# Reagent: long dsRNA against Drosophila genes
# Treatment: infection with dengue virus type 2; dose and infection time not stated
# Measurement: 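Per well on two replicate plates, imaging gave the percent of cells positive for viral envelope protein, ranked by infection, and a nuclear count of cells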
# Scale: infection score: higher = more virus-infected cells; cell count: higher = more cells in the well
# Call rule: 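Very low infection ranking in both replicate wells (chance probability at most 0.065), then a retest showing infection dropped 1.5-fold or more at p below 0.05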
# Calls: active = confirmed: knock-down lowers infection; inactive = not picked or not confirmed
# In all, the deposit lists about 22,000 reagents; below is a random part of those that have a named target and a result. In the full data, 116 (0.52%) got an active call. 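Calls depend on retest data that are not deposited; infection was ranked per plate without normalising between plates; the unit of the infection score is not given.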 Raw values vary from plate to plate and are shown uncorrected. A number with no mark means an inactive call. The record does not give: the amount of reagent, the time to read-out.
The first 3 entries, ahead of the listing:
gene,dsRNA,"infection score, replicate 1","infection score, replicate 2","cell count, replicate 1","cell count, replicate 2"
Art4 (Arginine methyltransferase 4),DRSC15779,1.3,4.97,6703,6500
CG4829,DRSC19920,2.74,1.89,6100,6042
Best4 (Bestrophin 4),DRSC10792,2.27,0.7,6170,6891

The listing, from the first entry:
gene,dsRNA,"infection score, replicate 1","infection score, replicate 2","cell count, replicate 1","cell count, replicate 2"
Art4 (Arginine methyltransferase 4),DRSC15779,1.3,4.97,6703,6500
CG4829,DRSC19920,2.74,1.89,6100,6042
Best4 (Bestrophin 4),DRSC10792,2.27,0.7,6170,6891
Best4 (Bestrophin 4),DRSC29196,17,12.2,5693,4763
CG13545,DRSC04187,19.8,9.68,5838,4120
CG13545,DRSC25484,19,23.1,5767,5635
gfzf (GST-containing FLYWCH zinc-finger protein),DRSC12506,1.65,8.07,6169,5889
gfzf (GST-containing FLYWCH zinc-finger protein),DRSC21874,7.36,5.42,6497,6584
CG4318,DRSC19887,1.96,,357,334
CG14160,DRSC10161,11.7,5.96,5645,5651
CG33061,DRSC09938,1.03,3.77,5629,5808
CG33061,DRSC22897,0.98,6.25,5943,5821
qkr58E-3 (quaking related 58E-3),DRSC04711,4.14,13.6,6311,5853
Sos (Son of sevenless),DRSC03439,1.06 (active),0.72,6819,6687
Sos (Son of sevenless),DRSC23624,0.69,5.39,5470,5420
ApepP (Aminopeptidase P),DRSC01866,1.64,6.04,6633,6239
CG11019 (retired record),DRSC02117,2.45,5.76,6783,6802
CG11019 (retired record),DRSC25211,2.79,11.3,5869,3152
dpr19 (defective proboscis extension response 19),DRSC02237,14.4,16.3,6427,6382
CG31313,DRSC13044,4.28,3.2,6118,5753
Fam92,DRSC02952,18,17,6601,6322
Fam92,DRSC29237,21.2,0.34,3784,296
PQBP1 (Poly-glutamine tract binding protein 1),DRSC14393,5.97,4.79,6051,6179
CG12398,DRSC19454,13.9,20.5,3475,3981
Rab4,DRSC07524,15.3,17.1,5501,3998
CG10026,DRSC02010,5.68,14.5,1955,6997
CG6749,DRSC10704,0.64,2.18,6216,6179
CG15258,DRSC02478,2.45,5.96,6695,6607
CG3857,DRSC18542,9.74,2.24,2660,5926
CG6962,DRSC16153,4.97,8.32,4647,5243
CG6962,DRSC28894,10.8,17.1,1548,4350
CG12684,DRSC17875,,,422,407
MESK2 (Misexpression suppressor of KSR 2),DRSC04258,6.01,6.84,6711,6522
MESK2 (Misexpression suppressor of KSR 2),DRSC28508,21.7,15,5184,5304
Ube4B (Ubiquitination factor E4B),DRSC03277,14.9,8.7,6162,6494
DptB (Diptericin B),DRSC06001,4.14,5.29,6206,6484
Or1a (Odorant receptor 1a),DRSC18689,5.06,1.78,6229,6974
dpr13 (defective proboscis extension response 13),DRSC06160,16.6,8.23,6794,6681
dpr13 (defective proboscis extension response 13),DRSC06464,27.6,9.37,6207,6765
dpr13 (defective proboscis extension response 13),DRSC24196,0.61,1.55,6409,6535
